Measurements as given in PMC4267653, “DNA cleavage by CgII and NgoAVII requires interaction between N- and R-proteins and extensive nucleotide hydrolysis” (Nucleic Acids Research, 2014).

Legend:
Assay in all cases: EMSA
[1] = system: R.NgoAVII (Neisseria gonorrhoeae FA1090); conditions: 5 mM Ca-acetate, EMSA: 1 nM 33P-DNA, 1-500 nM protein monomer, 40 mM Tris-acetate pH 8.3 (25°C), 0.1 mM EDTA (NgoAVII: 5 mM Ca-acetate instead), 0.1 mg/ml BSA, 10% glycerol, 15 min, recombinant protein, protein details: His6, N-terminal (not removed), label: 33P
[2] = system: N.NgoAVII (Neisseria gonorrhoeae FA1090); conditions: 5 mM Ca-acetate, EMSA: 1 nM 33P-DNA, 1-500 nM protein monomer, 40 mM Tris-acetate pH 8.3 (25°C), 0.1 mM EDTA (NgoAVII: 5 mM Ca-acetate instead), 0.1 mg/ml BSA, 10% glycerol, 15 min, recombinant protein, label: 33P
[3] = system: R.NgoAVII-B3 (Neisseria gonorrhoeae FA1090); conditions: 5 mM Ca-acetate; EMSA: 1 nM 33P-DNA, 1-500 nM protein monomer, 40 mM Tris-acetate pH 8.3 (25°C), 0.1 mM EDTA (NgoAVII: 5 mM Ca-acetate instead), 0.1 mg/ml BSA, 10% glycerol, 15 min; recombinant protein; label: 33P

Row | Sequence | binding result ([1]; little or no binding) | binding result ([2]; little or no binding) | binding result [3] | binding result [1] | binding result [2]
1 | TACAATCGATAATACCAGGCGTGCGAGCCCATT (double strand) [33 bp non-cognate duplex] | binds more weakly | binds more weakly | – | – | –
2 | TACAATCGATAATAGCCGCCGTGCGAGCCCATT (double strand) [33 bp cognate duplex] | – | – | binds | binds | no binding

For at least one entry, the source does not settle the construct or the ends of the probe. For some assays here: Negatives hold for the conditions tested. For some assays here: Weaker means in comparison with the reference protein, sequence or condition of that experiment. For some assays here: At least one verdict rests on a figure or table, not on a statement of the authors.
